Pooled drug test results. Numbers come from NIAID ChemDB, via PubChem.

Common to all: enzyme or target tests

Two numbers with a dash give a range or band.

SMILES	tested at	target	read-out	species	strain	method	result
CC(=O)N[C@@H](CC(=O)O)C(=O)N[C@H](CC(C(=O)O)C(=O)O)C(=O)N[C@H](C(=O)N[C@@H](CC(C)C)C(=O)N[C@@H](CC1CCCCC1)C(=O)N[C@@H](CS)C(=O)C(=O)O)C(c1ccccc1)c1ccccc1		NS3/NS4A serine protease	Ki	Hepatitis C virus			0.00004 µM
COc1nc(NCCN(C)C)nc(Nc2ccc3[nH]ncc3c2)n1		DNA polymerase	IC50	Hepatitis B virus			>1 µg/mL
O=C(NCc1cccc(Cl)c1)Nc1cccc(-c2nc(C(=O)O)c(O)c(=O)[nH]2)c1		HCV polymerase	IC50	Hepatitis C virus			<100 µM
O=C(O)c1cc2ncc(-c3ccc(OCc4ccccc4)cc3)c(C3CCCCC3)n2n1		RNA-dependent RNA polymerase	IC50	Hepatitis C virus			1–10 µM
O=C(O)c1cccc(-c2ccc(CN(C(=O)c3ccc(Cl)cc3Cl)[C@@H](Cc3ccccc3)C(=O)O)o2)c1		RNA-dependent RNA polymerase	IC50	Hepatitis C virus			<5 µM
O=C(Cc1ccc(-c2ccccc2)cc1)Nc1ccsc1-c1nc(C(=O)O)c(O)c(=O)[nH]1		HCV polymerase	IC50	Hepatitis C virus			<25 µM
COC(=O)c1ccc(-c2ccc(CN(C(=O)c3ccc(Cl)cc3Cl)[C@@H](Cc3ccccc3)C(=O)O)s2)cc1		RNA-dependent RNA polymerase	IC50	Hepatitis C virus			<5 µM
O=C(/C=C/c1ccc(O)c(O)c1)O[C@H]1[C@H](O)C[C@](O)(C(=O)O)C[C@H]1OC(=O)/C=C/c1ccc(O)c(O)c1	10 µg/mL	HBeAg	inhibition	Hepatitis B virus	HepG 2.2.15	ELISA	9.92%
CCCC(NC(=O)[C@@H]1CCCN1C(=O)[C@@H](NC(=O)[C@@H](NC(=O)[C@@H](CCC(=O)O)NC(=O)[C@H](CC(=O)O)NC(C)=O)[C@@H](C)CC)C(C)C)C(=O)C(=O)NCc1ccccc1		NS3 protease/NS4A cofactor	IC50	Hepatitis C virus			2 µM
CCc1ccc(C(=O)OCc2ccccc2)c(Nc2ccc(N3CCOCC3)cc2)n1	0.1 µg/mL	NS5B polymerase	inhibition	Hepatitis C virus			30–55%
CC[C@@H](C=O)NC(=O)[C@@H]1C[C@@H](OC(=O)Nc2ccccc2C(C)C)CN1C(=O)[C@@H](NC(=O)[C@@H](NC(=O)c1cnccn1)C(C)C)C(C)C		NS3 protease	Ki	Hepatitis C virus			1–100 µM
NS(=O)(=O)c1ccc(CCNc2cc(C(=O)Nc3ccc4cn[nH]c4c3)c(F)cc2F)cc1	0.01 µg/mL	Reverse transcriptase	inhibition	Hepatitis B virus			39%
C=CC1CC1(NC(=O)[C@@H]1C[C@@H](OC(=O)Nc2cc([N+](=O)[O-])ccc2C)CN1C(=O)[C@@H](NC(=O)OC(C)(C)C)C(C)(C)C)C(=O)NS(=O)(=O)C1CC1		NS3/NS4A protease	IC50	Hepatitis C virus	BMS/H77C/J416S		<0.1 µM
O=C(O)[C@H](Cc1ccccc1)N(Cc1ccc(-c2cccc(C(F)(F)F)c2)o1)C(=O)c1ccc(Cl)cc1Cl		RNA-dependent RNA polymerase	IC50	Hepatitis C virus			<5 µM
CC(C)(C)OC(=O)NCCCCCC(=O)Nc1ccsc1-c1nc(C(=O)O)c(O)c(=O)[nH]1		HCV polymerase	IC50	Hepatitis C virus			<25 µM
O=C(O)C(Cc1ccccc1)N(Cc1ccc(-c2cccc(Cl)c2)o1)C(=O)c1ccc(Cl)cc1Cl		RNA-dependent RNA polymerase	IC50	Hepatitis C virus			<5 µM
COCCNC(=O)c1cnc(SC)nc1Nc1ccc2cn[nH]c2c1		Reverse transcription	IC50	Hepatitis B virus			<1 µg/mL
CSCC[C@H](NC(=O)[C@H](CCC(=O)O)NC(=O)[C@H](CC(=O)O)NC(C)=O)C(=O)N[C@@H](CCC(=O)O)C(=O)N[C@@H](Cc1ccc2ccccc2c1)C(=O)N[C@@H](CS)C(=O)O		NS3/NS4A serine protease	Ki	Hepatitis C virus			0.4 µM
CSc1ncc(C(=O)NN2CCOCC2)c(Nc2ccc3[nH]ncc3c2)n1		Reverse transcription	IC50	Hepatitis B virus			<0.1 µg/mL
COc1ccc(OC)c(COc2ccc(-c3cnc4c(-c5nn[nH]n5)cnn4c3C3CCCCC3)cc2)c1		RNA-dependent RNA polymerase	IC50	Hepatitis C virus			<1 µM
O=C(Nc1ccc2[nH]ncc2c1)c1cc(NCCO)c(F)cc1F	0.01 µg/mL	Reverse transcriptase	inhibition	Hepatitis B virus			43%
COc1cc2c(=O)c(C(=O)c3ccc(C)cc3)cn(Cc3ccc(Cl)cc3)c2cc1OC		Nonstructural protein 4B	IC50	Hepatitis C virus		scintillation proximity	1.7 µM
O=C(O)[C@H](Cc1ccccc1)N(Cc1ccc(-c2ccc(Cl)cc2Cl)o1)C(=O)c1ccc(Cl)cc1Cl		RNA-dependent RNA polymerase	IC50	Hepatitis C virus			<5 µM
CCCN(NC(=O)[C@@H]1C[C@@H](OCc2ccccc2)CN1C(=O)[C@@H](NC(=O)[C@H]([C@@H](C)CC)N(O)C(=O)[C@@H](CCC(=O)O)NC(=O)[C@H](CC(=O)O)NC(C)=O)C(C)C)C(=O)NCc1ccc2c(c1)OCO2		NS3 protease/NS4A cofactor	IC50	Hepatitis C virus			0.5 µM
COc1nc(NCCN2CCOCC2)nc(Nc2ccc3cn[nH]c3c2)n1	1 µg/mL	Nonstructural protein 5B	inhibition	Hepatitis C virus			33%
CN(C)CCNc1cc(C(=O)Nc2ccc3cn[nH]c3c2)c(F)cc1F	0.01 µg/mL	Reverse transcriptase	inhibition	Hepatitis B virus			19%
O=C(Nc1ccsc1-c1nc(C(=O)O)c(O)c(=O)[nH]1)c1ccc(-c2ccccc2)cc1		HCV polymerase	IC50	Hepatitis C virus			<25 µM
CCSc1nc(Nc2ccc(N(CC)CC)cc2)cc(N2CCN(C(=O)c3ccnc(C)c3)CC2)n1	0.1 µg/mL	NS5B polymerase	inhibition	Hepatitis C virus			30–55%
CC[C@H](NC(=O)[C@@H]1C[C@@H](OCc2ccccc2)CN1C(=O)[C@@H](NC(=O)[C@@H](NC(=O)C(CC(=O)O)NC(=O)[C@H](CCC(=O)O)NC(C)=O)C(C)C)C(C)C)C(=O)C(=O)NCCc1ccccc1		NS3 protease	Ki	Hepatitis C virus			<1 µM
Cc1cnc2c(-c3nn[nH]n3)cnn2c1C(C)C		RNA-dependent RNA polymerase	IC50	Hepatitis C virus			>10 µM
COc1cccc(-c2csc(CN(C(=O)c3ccc(Cl)cc3Cl)C(Cc3ccccc3)C(=O)O)c2)c1		RNA-dependent RNA polymerase	IC50	Hepatitis C virus			<5 µM
O=C(O)c1cc2ncc(-c3ccccc3)c(-c3cccc(Oc4ccccc4)c3)n2n1		RNA-dependent RNA polymerase	IC50	Hepatitis C virus			>10 µM
CCC[C@]1(CC(=O)O)OCCc2c1[nH]c1c(C)c(OC[C@H](C)n3cccn3)cc(C#N)c21		HCV polymerase	IC50	Hepatitis C virus	BB7	nucleotide incorporation	0.005 µM
CCCCc1ccc(C(=O)O)c(N(C)c2ccc(N3CCNCC3)cc2)n1	0.1 µg/mL	NS5B polymerase	inhibition	Hepatitis C virus			30–55%
C=CC1CC1(NC(=O)[C@@H]1C[C@@H](OC(=O)Nc2ccccc2Br)CN1C(=O)[C@@H](NC(=O)OC(C)(C)C)C(C)(C)C)C(=O)NS(=O)(=O)C1CC1		NS3/NS4A protease	IC50	Hepatitis C virus	BMS/H77C/J416S		0.1–1 µM
COc1nc(Nc2ccc3cn[nH]c3c2)nc(-n2ccnc2)n1	0.1 µg/mL	DNA polymerase	inhibition	Hepatitis B virus			40%
O=C(Nc1ccc2[nH]ncc2c1)c1cc(NCCN2CCOCC2)c(F)cc1F	0.01 µg/mL	Reverse transcriptase	inhibition	Hepatitis B virus			45%
C=CC1CC1(NC(=O)[C@@H]1C[C@@H](OC(=O)Nc2cccc(Cl)c2Cl)CN1C(=O)[C@@H](NC(=O)OC(C)(C)C)C(C)(C)C)C(=O)NS(=O)(=O)C1CC1		NS3/NS4A protease	IC50	Hepatitis C virus	BMS/H77C/J416S		<0.1 µM
CNC(=O)c1cnc(SC)nc1Nc1ccc2[nH]ncc2c1		Reverse transcription	IC50	Hepatitis B virus			<0.1 µg/mL
Nc1ccn([C@H]2CS[C@@H](COP(=O)(O)OP(=O)(O)OP(=O)(O)O)O2)c(=O)n1		DNA polymerase	IC50	Hepatitis B virus	Polymerase mutant M550V		0.305 µM
C=CC1CC1(NC(=O)[C@@H]1C[C@@H](OC(=O)Nc2ccccc2C(=O)OCC)CN1C(=O)[C@@H](NC(=O)OC)C(C)(C)C)C(=O)NS(=O)(=O)C1CC1		NS3/NS4A protease	IC50	Hepatitis C virus	BMS/H77C/J416S		<0.1 µM
O=C(O)C(Cc1ccccc1)N(Cc1ccc(-c2cccc(F)c2)s1)C(=O)c1ccc(Cl)cc1Cl		RNA-dependent RNA polymerase	IC50	Hepatitis C virus			<5 µM
O=C(O)c1cc2nc(-c3ccccc3)cc(-c3ccccc3)n2n1		RNA-dependent RNA polymerase	IC50	Hepatitis C virus			>10 µM
CSc1ncc(C(=O)NCCCn2ccnc2)c(Nc2ccc3[nH]ncc3c2)n1		Reverse transcription	IC50	Hepatitis B virus			<0.1 µg/mL
CC(=O)N[C@@H](CC(=O)O)C(=O)N[C@H](CC1CCCCC1)C(=O)N[C@H](C(=O)N[C@@H](CCC(=O)O)C(=O)N[C@@H](CC1CCCCC1)C(=O)N[C@@H](CS)C(=O)C(=O)O)C(c1ccccc1)c1ccccc1		NS3/NS4A serine protease	Ki	Hepatitis C virus			244 µM
O=C(O)C(Cc1ccccc1)N(Cc1cc(-c2cc(F)cc(F)c2)cs1)C(=O)c1ccc(Cl)cc1Cl		RNA-dependent RNA polymerase	IC50	Hepatitis C virus			<5 µM
COc1nc(NCCCN2CCCC2=O)nc(Nc2ccc3cn[nH]c3c2)n1		DNA polymerase	IC50	Hepatitis B virus			>1 µg/mL
CC(=O)N[C@@H](CC(=O)O)C(=O)N[C@@H](CC1CCCCC1)C(=O)N[C@H](C(=O)N[C@@H](CCC(=O)O)C(=O)N[C@@H](CC1CCCCC1)C(=O)N[C@@H](CS)C(=O)C(=O)O)C(c1ccccc1)c1ccccc1		NS3/NS4A serine protease	Ki	Hepatitis C virus			109 µM
CC[C@@H](C=O)NC(=O)[C@H](CC(C)C)NC(=O)[C@@H](NC(=O)[C@@H](NC(=O)c1ccc(=O)[nH]c1)C(C)C)C(C)C		NS3 protease	Ki	Hepatitis C virus			1–100 µM
O=C(O)c1nc(-c2sccc2NC(=O)C2CCCNC2)[nH]c(=O)c1O		HCV polymerase	IC50	Hepatitis C virus			<25 µM
CC(=O)N[C@@H](CC(=O)O)C(=O)N[C@H](CC(C(=O)O)C(=O)O)C(=O)N[C@@H](Cc1c[nH]c2c(O)cccc12)C(=O)N[C@@H](CCC(=O)O)C(=O)N[C@@H](CC1CCCCC1)C(=O)N[C@H](C(=O)O)C(=O)S		NS3/NS4A serine protease	Ki	Hepatitis C virus			0.007 µM
C=CC1CC1(NC(=O)[C@@H]1C[C@@H](OC(=O)Nc2ccccn2)CN1C(=O)[C@@H](NC(=O)OC(C)(C)C)C(C)(C)C)C(=O)NS(=O)(=O)C1CC1		NS3/NS4A protease	IC50	Hepatitis C virus	BMS/H77C/J416S		0.1–1 µM
COc1nc(Nc2ccc3cn[nH]c3c2)nc(N2CCOCC2)n1		DNA polymerase	IC50	Hepatitis B virus			0.1–1 µg/mL
C=CC1CC1(NC(=O)[C@@H]1C[C@@H](OC(=O)Nc2ccccc2CC)CN1C(=O)[C@@H](NC(=O)OC(C)(C)C)C(C)(C)C)C(=O)NS(=O)(=O)C1CC1		NS3/NS4A protease	IC50	Hepatitis C virus	BMS/H77C/J416S		0.1–1 µM
C=C(Br)CN(C(=O)c1ccc(Cl)cc1Cl)C(Cc1ccccc1)C(=O)O		RNA-dependent RNA polymerase	IC50	Hepatitis C virus			5–20 µM
Cn1cc(CC(=O)Nc2cscc2-c2nc(C(=O)O)c(O)c(=O)[nH]2)c2ccccc21		HCV polymerase	IC50	Hepatitis C virus			<25 µM
CC(=O)OC(=O)CCCC(=O)ON[C@H](CC(C(=O)O)C(=O)O)C(=O)N[C@H](C(=O)N[C@@H](CCC(=O)O)C(=O)N[C@@H](CC1CCCCC1)C(=O)N[C@@H](CS)C(=O)C(=O)O)C(c1ccccc1)c1ccccc1		NS3/NS4A serine protease	Ki	Hepatitis C virus			0.002 µM
CC(C)CCc1c(-c2ccc(OCc3ccccc3)cc2)nc2c(C(=O)O)c[nH]n2c1=O		RNA-dependent RNA polymerase	IC50	Hepatitis C virus			1–10 µM
CC[C@@H](C=O)NC(=O)[C@@H]1C[C@@H](OCc2cccc(C(F)(F)F)c2)CN1C(=O)[C@@H](NC(=O)[C@@H](NC(=O)c1cnccn1)C(C)C)C(C)C		NS3 protease	Ki	Hepatitis C virus			1–100 µM
CCCCOC(=O)c1ccc(CCCC)nc1Nc1ccc(N2CCOCC2)cc1	0.1 µg/mL	NS5B polymerase	inhibition	Hepatitis C virus			30–55%
Cc1cc(C)c(S(=O)(=O)Nc2ccccc2-c2nc(C(=O)O)c(O)c(=O)[nH]2)c(C)c1		HCV polymerase	IC50	Hepatitis C virus			<100 µM
O=C(O)c1cc2nc(-c3ccc(Cl)cc3)cc(-c3cccc(OCc4ccccc4)c3)n2n1		RNA-dependent RNA polymerase	IC50	Hepatitis C virus			1–10 µM
O=C(Nc1ccc2cn[nH]c2c1)c1cc(NCCN2CCOCC2)c(F)cc1F	0.01 µg/mL	Reverse transcriptase	inhibition	Hepatitis B virus			12%
CSc1ncc(C(=O)NCCCn2ccnc2)c(Nc2ccc3cn[nH]c3c2)n1		Reverse transcription	IC50	Hepatitis B virus			<0.1 µg/mL
O=C(Nc1cc(-c2ccc(C(F)(F)F)cc2)nc2cc(C(=O)O)nn12)c1ccc(Cl)cc1		RNA-dependent RNA polymerase	IC50	Hepatitis C virus			>10 µM
CC[C@H](NC(=O)[C@H](CC(C)C)NC(=O)[C@@H](NC(=O)[C@@H](NC(=O)[C@H](CC(=O)O)NC(=O)[C@@H](N)CCC(=O)O)C(C)C)C(C)C)C(=O)c1nccs1		NS3 protease	Ki	Hepatitis C virus			1–100 µM

Lines come from different laboratories, so protocols vary. ICn: concentration for n% inhibition. An empty or dashed field is not shown. Inhibition is in % at the dose shown (toxicity tests: loss of growth or viability).